Test results published in patent US11472778B2, “Hepatitis C virus NS3/4A protease inhibitors” (priority 2017, dated 2022).

Target: GT1a D168A NS3/4A protease
Settings: Table 6; with respect to GT1a wild-type

In the case of COc1ccc2nc(C)c(O[C@@H]3C[C@H]4C(=O)N[C@]5(C(=O)NS(=O)(=O)C6(C)CC6)C[C@H]5/C=C\CCCCC[C@H](NC(=O)OC(C)(C)C(F)(F)F)C(=O)N4C3)nc2c1, the “Ki (Fold Change) D168A” value is reported as “(15) fold”.
